Results of unrelated studies side by side (data: NIAID ChemDB).

Common to all: tests in culture; species: HIV-1; cells: MT-4; measure: EC50

Blank or dashed fields: not listed here.

SMILES | strain or isolate | changes | read by | conditions | value
COc1ccc(OS(=O)(=O)c2c3occc3c(OC)c3c(=O)cc(C)oc23)cc1 | IIIB |  | MTT |  | 0.000048 µM
Cc1ncn(Nc2cccc(Cl)c2)c1-c1ccccc1 | IIIB |  | cytopathic effect / MTT |  | 1.59 µM
Cc1cc(C#N)cc(C)c1Oc1ccnc(S(=O)(=O)CC(=O)Nc2ccc(C#N)cc2)n1 | IIIB | F227L V106A | RT activity / fluorescence |  | 0.127 µM
Cc1[nH]c(=S)n(Nc2cccc([N+](=O)[O-])c2)c1-c1ccccc1 | SO561945 (RT K103N Y181C) | RT-K103N Y181C | cytopathic effect / MTT |  | 42.18 µM
Cc1cc(-c2ccc(C#N)cc2)cc(C)c1Oc1ccnc(S(=O)(=O)CC(=O)Nc2ccc(Cl)cc2)n1 | IIIB | F227L V106A | MTT |  | 4.333 µM
COP(=O)(c1cc(C)cc(CCC#N)c1)c1c(C(N)=O)[nH]c2ccc(Cl)cc12 | IIIB | Y181C | cytopathic effect |  | 0.0021 µM
Cc1cc(-c2ccc(C#N)cc2)cc(C)c1Oc1ccnc(S(=O)(=O)CC(=O)Nc2ccc(Br)cc2)n1 | RES056 |  | MTT |  | 4.999 µM
COC(=O)c1c(C)[nH]c(=S)n1Nc1cccc(Cl)c1 | NL4-3 |  | cytopathic effect / MTT |  | >190 µM
Cc1cc(/C=C/C#N)cc(C)c1Oc1ccnc(S(=O)(=O)CC(=O)Nc2ccc(Cl)cc2)n1 | IIIB | K103N | MTT |  | 0.007 µM
CCNC(=O)c1ccc(C2=NN3C(C(=O)c4ccc(F)cc4)Oc4ccccc4C3C2)cc1 | LAI |  | GFP / reporter gene |  | >10 µM
CC(C)CN(C[C@@H](O)[C@H](Cc1ccccc1)NC(=O)[C@H](C(C)C)N1CC(=O)N(Cc2ccncc2)C1=O)S(=O)(=O)c1ccc(/C=N/O)cc1 |  |  | cytopathic effect / MTT |  | 0.016 µM
Cc1[nH]c(=S)n(Nc2cccc(Cl)c2)c1-c1ccccc1 | IIIB |  | cytopathic effect / MTT |  | 6.39 µM
CCC(C)[C@@H](C(=O)N[C@@H](Cc1ccccc1)[C@H](O)CN(CC(C)C)S(=O)(=O)c1ccc(/C=N/O)cc1)N1CCN(Cc2ccncc2)C1=O |  |  | cytopathic effect / MTT |  | 0.006 µM
COC(=O)c1[nH]c(=S)n(Nc2cccc(Cl)c2)c1C | IIIB |  | cytopathic effect / MTT |  | >48.8 µM
COc1c2ccoc2c(S(=O)(=O)Oc2ccc([N+](=O)[O-])cc2)c2oc(C)cc(=O)c12 | IIIB |  | MTT |  | 0.000057 µM
Cc1[nH]c(=S)n(Nc2cccc(Cl)c2)c1-c1cccc(C#N)c1 | IIIB |  | cytopathic effect / MTT |  | ≥99.4 µM
Cc1cc(-c2ccc(C#N)cc2)cc(C)c1Oc1ccnc(S(=O)(=O)CC(=O)NC(C)c2ccc(F)cc2)n1 | IIIB |  | MTT |  | >4.56 µM
CCC(C)[C@@H](C(=O)N[C@@H](Cc1ccccc1)[C@H](O)CN(CC(C)C)S(=O)(=O)c1ccc(/C=N/O)cc1)N1CCN(Cc2cccnc2C)C1=O | A17 (LPV-resistant) | PR-L10F V32I M46I I47V Q68E I84V | cytopathic effect / MTT |  | 0.019 µM
C#CCOCn1c(Cc2cc(C(F)(F)F)cc(C(F)(F)F)c2)c(CC)c(=O)[nH]c1=O | A17 | K103N + Y181C | MTT |  | >100 µM
CCC(C)[C@@H](C(=O)N[C@@H](Cc1ccccc1)[C@H](O)CN(CC(C)C)S(=O)(=O)c1ccc(/C=N/O)cc1)N1CC(=O)N(Cc2cccnc2)C1=O | A17 (LPV-resistant) | PR-L10F V32I M46I I47V Q68E I84V | cytopathic effect / MTT |  | 0.001 µM
CCOCn1c(Cc2cc(F)ccc2F)c(CC)c(=O)[nH]c1=O | N119 (Y181C) |  | MTT |  | 11 µM
N#Cc1cc(C#N)cc(Oc2cc(Cl)cc(OCC(=O)Nc3ccc(S(N)(=O)=O)cc3Cl)c2)c1 |  |  | p24 |  | <20 µM
Cc1cn([C@H]2C=C[C@@H](CO)O2)c(=O)[nH]c1=O | HXB2wt-RT |  | cytopathic effect / MTT |  | 0.52 µM
O=C(NCCc1ccccn1)c1ccc(C2=NN3C(C(=O)c4ccc(F)cc4)Oc4ccccc4C3C2)cc1 | LAI |  | GFP / reporter gene |  | 1–10 µM
COc1ccc(Cn2c(C)c(C)c3c(-c4ccc(Cl)cc4)c(C(OC(C)(C)C)C(=O)O)c(C)nc32)cc1 | IIIB |  | MTT |  | 0.134 µM
CC(C)[C@H](NC(=O)OCc1ccccn1)C(=O)N[C@@H](Cc1ccccc1)[C@@H](O)C[C@H](Cc1ccccc1)NC(=O)OCc1cccnc1 | NL4-3 | PR-L10R M46I L63P | p24 |  | <0.8 µM
CCC(C)[C@@H](C(=O)N[C@@H](Cc1ccccc1)[C@H](O)CN(CC(C)C)S(=O)(=O)c1ccc(/C=N/O)cc1)N1CCN(Cc2cccc(C(C)C)n2)C1=O |  |  | cytopathic effect / MTT | 50% human serum | 0.026 µM
Cc1cc(OCc2nc3ccccc3s2)cc(Oc2cc(Cl)cc(C#N)c2)c1 |  |  | p24 |  | <20 µM
COc1c2ccoc2c(S(=O)(=O)OC2CCCCC2)c2oc(C)cc(=O)c12 | IIIB |  | MTT |  | 0.000059 µM
O=C(NC1CCCC1)c1ccc(C2=NN3C(C(=O)c4ccc(C(F)(F)F)cc4)Oc4ccccc4C3C2)cc1 | LAI |  | GFP / reporter gene |  | <1 µM
COc1c(-c2cc(C)on2)c(O)c(S(=O)(=O)OC2CCCCC2)c2occc12 | IIIB |  | MTT |  | 0.000034 µM
Cc1ncn(Nc2cccc(Cl)c2)c1-c1cccc(C#N)c1 | IIIB |  | cytopathic effect / MTT |  | 6.96 µM
CN(C)CCNC(=O)c1ccc(C2=NN3C(C(=O)c4ccc(F)cc4)Oc4ccccc4C3C2)cc1 | LAI |  | GFP / reporter gene |  | 1–10 µM
CCOCn1c(Cc2cc(C(F)(F)F)cc(C(F)(F)F)c2)c(CC)c(=O)[nH]c1=O | N119 (Y181C) |  | MTT |  | 80 µM
N#Cc1cc(Cl)cc(Oc2cc(OCc3[nH]nc4nc(N5CC(CN)C5)ccc34)ccc2Cl)c1 |  |  | p24 |  | <20 µM
Cc1nc2c(c(C)c(C)n2CC2CC2(F)F)c(-c2ccc(Cl)cc2)c1[C@H](OC(C)(C)C)C(=O)O | IIIB |  | MTT |  | 0.0265 µM
CCc1ccc(C(=O)C2Oc3ccccc3C3CC(c4ccc(C(=O)NC5CCCC5)cc4)=NN23)cc1 | LAI |  | GFP / reporter gene |  | <1 µM
Cc1cc(-c2ccc(C#N)cc2)cc(C)c1Oc1ccnc(S(=O)(=O)CC(=O)Nc2ccc(F)cc2)n1 | RES056 |  | MTT |  | 3.536 µM
C=CCOCn1c(Cc2cccc(C(F)(F)F)c2)c(CC)c(=O)[nH]c1=O | A17 | K103N + Y181C | MTT |  | 19 µM
N#Cc1cc(Cl)cc(Oc2cc(F)c(Cl)c(OCc3nnc4n(O)cccc3-4)c2)c1 |  |  | p24 |  | <20 µM
CCOCn1c(Cc2ccccc2)c(C(C)C)c(=O)[nH]c1=O | IIIB |  | MTT |  | 0.03 µM
Cc1cc(-c2ccc(C#N)cc2)cc(C)c1Oc1ccnc(S(=O)(=O)C(C)C(=O)Nc2ccc(C#N)cc2)n1 | IIIB | L100I | MTT |  | 0.106 µM
Cc1nc2c(c(C)c(C)n2Cc2cccnc2)c(-c2ccc(Cl)cc2)c1C(OC(C)(C)C)C(=O)O | IIIB |  | MTT |  | 0.0264 µM
Cc1cc(/C=C/C#N)cc(C)c1Oc1ccnc(S(=O)(=O)CC(=O)NCCc2ccc(Cl)cc2)n1 | IIIB |  | MTT |  | 0.49 µM
Cc1nc2c(c(C)c(C)n2CCC#N)c(-c2ccc(Cl)cc2)c1C(OC(C)(C)C)C(=O)O | IIIB |  | MTT |  | 0.00639 µM
COc1c(C(=O)/C=C(/C)Nc2ccccc2)c(O)c(S(=O)(=O)OC2CCCC2)c2occc12 | IIIB |  | MTT |  | 0.000044 µM
Cc1cc(-c2ccc(C#N)cc2)cc(C)c1Oc1ccnc(S(=O)(=O)C(C)C(=O)Nc2ccc(Cl)cc2)n1 | IIIB | K103N | MTT |  | 0.035 µM

5 of the rows above, restated:

SMILES | strain or isolate | changes | read by | conditions | value
COc1c2ccoc2c(S(=O)(=O)OC2CCCCC2)c2oc(C)cc(=O)c12 | IIIB |  | MTT |  | 0.000059 µM
COC(=O)c1[nH]c(=S)n(Nc2cccc(Cl)c2)c1C | IIIB |  | cytopathic effect / MTT |  | >48.8 µM
O=C(NC1CCCC1)c1ccc(C2=NN3C(C(=O)c4ccc(C(F)(F)F)cc4)Oc4ccccc4C3C2)cc1 | LAI |  | GFP / reporter gene |  | <1 µM
O=C(NCCc1ccccn1)c1ccc(C2=NN3C(C(=O)c4ccc(F)cc4)Oc4ccccc4C3C2)cc1 | LAI |  | GFP / reporter gene |  | 1–10 µM
CN(C)CCNC(=O)c1ccc(C2=NN3C(C(=O)c4ccc(F)cc4)Oc4ccccc4C3C2)cc1 | LAI |  | GFP / reporter gene |  | 1–10 µM

Rows are shuffled and stem from different studies. ECn is the concentration giving n% inhibition of infection, replication or growth. a–b is a range or a potency band.